“And” between values parts separate entries of the source, which are not always exact repeats. Identical values can stand only once.
Experiments:
[1] = biological target: polypeptide of sequence …; experiment: real-time single-molecule sequencing trace with hTET
[2] = biological target: … after VPr has cut Y and two alanine residues (N-terminal W); experiment: as above
[3] = biological target: … after VPr has further cut W and two alanine residues (N-terminal F); experiment: as above
[4] = biological target: W (region with N-terminal W of … or …); experiment: real-time single-molecule sequencing trace with hTET and yPIP
[5] = biological target: …-dsQ24-Cy3B-SV; experiment: as above
[6] = biological target: W (region with N-terminal W of … or …); experiment: as above; remark: listed apart in the source
[7] = biological target: …-dsQ24-Cy3B-SV; experiment: as above; remark: listed apart in the source
[8] = biological target: W (region with N-terminal W of … or …); experiment: real-time single-molecule sequencing with hTET and yPIP, top trace
[9] = biological target: …-dsQ24-Cy3B-SV; experiment: as above
[10] = biological target: W (region with N-terminal W of … or …); experiment: real-time single-molecule sequencing with hTET and yPIP, bottom trace
[11] = biological target: …-dsQ24-Cy3B-SV; experiment: as above
[12] = biological target: W (region with N-terminal W of … or …); experiment: real-time single-molecule sequencing with hTET and yPIP, middle trace
[13] = biological target: …-dsQ24-Cy3B-SV; experiment: as above

B1: atClpS2-V1 (protein)
recognition protein: MSDSPVDLKPKPKVKPKLERPKLYKVMLLNDDYTPMSFVTVVLKAVFRMSEDTGRRVMMTAHRFGSAVVVVCERDIAETKAKEATDLGKEAGFPLMFTTEPEE
number printed under the region label (not named on the sheet) [1]: 0.51 | number printed under the region label (not named on the sheet) [2]: 0.12 | number printed under the region label (not named on the sheet) [3]: 1.41 and 1.49 | number printed under the region label (not named on the sheet) [4]: 0.21 | number printed under the region label (not named on the sheet) [5]: 1.08 and 0.4 | number printed under the region label (not named on the sheet) [6]: 0.15 | number printed under the region label (not named on the sheet) [7]: 0.32 | number printed under the region label (not named on the sheet) [8]: 0.27 | number printed under the region label (not named on the sheet) [9]: 0.42 | number printed under the region label (not named on the sheet) [10]: 0.22 | number printed under the region label (not named on the sheet) [11]: 0.35 | number printed under the region label (not named on the sheet) [12]: 0.26 | number printed under the region label (not named on the sheet) [13]: 0.46
